Source: patent US20230143604A1 (TAKEDA PHARMACEUTICAL COMPANY LIMITED, priority 2020, published 2023)
Starred links: 1 amine or outer side, 2 acyl side, 3 side chain; linkers in the order of their positions; H or OH if unused. Non-standard residues stand in square brackets, D forms with d. Groups on a side chain read outwards from the residue. *: point of attachment. C18 diacid = O=C(O)CCCCCCCCCCCCCCCCC(=O)*; γGlu = O=C(O)[C@H](CCC(=O)[*:2])N[*:1]; NMeY = CN[C@@H](Cc1ccc(O)cc1)C(=O)O; AEEA = NCCOCCOCC(=O)O; Aib = CC(C)(N)C(=O)O

Experiment: general procedure: Fmoc solid-phase peptide synthesis; Rink Amine MBHA resin; 2-CTC Resin; HBTU/DIEA
Settings: whole synthesis, HOAC

Substance: H-[NMeY][Aib]EGTFISDYSI[Aib]LDR[Aib]AQ[Aib]NFVNWLLAQK([AEEA-AEEA-γGlu-γGlu-C18 diacid])PSSGAPPPS-NH2 (SMILES CC[C@H](C)[C@H](NC(=O)[C@H](Cc1ccccc1)NC(=O)[C@@H](NC(=O)CNC(=O)[C@H](CCC(=O)O)NC(=O)C(C)(C)NC(=O)[C@H](Cc1ccc(O)cc1)NC)[C@@H](C)O)C(=O)N[C@@H](CO)C(=O)N[C@@H](CC(=O)O)C(=O)N[C@@H](Cc1ccc(O)cc1)C(=O)N[C@@H](CO)C(=O)N[C@H](C(=O)NC(C)(C)C(=O)N[C@@H](CC(C)C)C(=O)N[C@@H](CC(=O)O)C(=O)N[C@@H](CCCNC(=N)N)C(=O)NC(C)(C)C(=O)N[C@@H](C)C(=O)N[C@@H](CCC(N)=O)C(=O)NC(C)(C)C(=O)N[C@@H](CC(N)=O)C(=O)N[C@@H](Cc1ccccc1)C(=O)N[C@H](C(=O)N[C@@H](CC(N)=O)C(=O)N[C@@H](Cc1c[nH]c2ccccc12)C(=O)N[C@@H](CC(C)C)C(=O)N[C@@H](CC(C)C)C(=O)N[C@@H](C)C(=O)N[C@@H](CCC(N)=O)C(=O)N[C@@H](CCCCNC(=O)COCCOCCNC(=O)COCCOCCNC(=O)CC[C@H](NC(=O)CC[C@H](NC(=O)CCCCCCCCCCCCCCCCC(=O)O)C(=O)O)C(=O)O)C(=O)N1CCC[C@H]1C(=O)N[C@@H](CO)C(=O)N[C@@H](CO)C(=O)NCC(=O)N[C@@H](C)C(=O)N1CCC[C@H]1C(=O)N1CCC[C@H]1C(=O)N1CCC[C@H]1C(=O)N[C@@H](CO)C(N)=O)C(C)C)[C@@H](C)CC)
- final HPLC purity: 97.25% purity

Substance: Me-Y-Aib-E-G-T-F-I-S-D-Y-S-I-A-L-D-R-Km-A-Q-Aib-D-F-V-N W-L-L-A-Q-S-P-S-S-G-A-P-P-P-S-NH2
- final HPLC purity: 98.60% purity

Substance: H-[NMeY][Aib]EGTFISDYSIALDR[Aib]K([AEEA-AEEA-γGlu-γGlu-C18 diacid])Q[Aib]NFVNWLLAQSPSSGAPPPS-NH2 (SMILES CC[C@H](C)[C@H](NC(=O)[C@H](CO)NC(=O)[C@H](Cc1ccc(O)cc1)NC(=O)[C@H](CC(=O)O)NC(=O)[C@H](CO)NC(=O)[C@@H](NC(=O)[C@H](Cc1ccccc1)NC(=O)[C@@H](NC(=O)CNC(=O)[C@H](CCC(=O)O)NC(=O)C(C)(C)NC(=O)[C@H](Cc1ccc(O)cc1)NC)[C@@H](C)O)[C@@H](C)CC)C(=O)N[C@@H](C)C(=O)N[C@@H](CC(C)C)C(=O)N[C@@H](CC(=O)O)C(=O)N[C@@H](CCCNC(=N)N)C(=O)NC(C)(C)C(=O)N[C@@H](CCCCNC(=O)COCCOCCNC(=O)COCCOCCNC(=O)CC[C@H](NC(=O)CC[C@H](NC(=O)CCCCCCCCCCCCCCCCC(=O)O)C(=O)O)C(=O)O)C(=O)N[C@@H](CCC(N)=O)C(=O)NC(C)(C)C(=O)N[C@@H](CC(N)=O)C(=O)N[C@@H](Cc1ccccc1)C(=O)N[C@H](C(=O)N[C@@H](CC(N)=O)C(=O)N[C@@H](Cc1c[nH]c2ccccc12)C(=O)N[C@@H](CC(C)C)C(=O)N[C@@H](CC(C)C)C(=O)N[C@@H](C)C(=O)N[C@@H](CCC(N)=O)C(=O)N[C@@H](CO)C(=O)N1CCC[C@H]1C(=O)N[C@@H](CO)C(=O)N[C@@H](CO)C(=O)NCC(=O)N[C@@H](C)C(=O)N1CCC[C@H]1C(=O)N1CCC[C@H]1C(=O)N1CCC[C@H]1C(=O)N[C@@H](CO)C(N)=O)C(C)C)
- final HPLC purity: 95.73% purity

Substance: H-[NMeY][Aib]EGTFISDYSIALDR[Aib]AQ[Aib]K([AEEA-AEEA-γGlu-γGlu-C18 diacid])FVNWLLAQKG-OH
- final HPLC purity: 96.8% purity

Substance: H-[NMeY][Aib]EGTFISDYSI[Aib]LDR[Aib]AQ[Aib]K([AEEA-AEEA-γGlu-γGlu-C18 diacid])FVNWLLAQRG-OH (SMILES CC[C@H](C)[C@H](NC(=O)[C@H](Cc1ccccc1)NC(=O)[C@@H](NC(=O)CNC(=O)[C@H](CCC(=O)O)NC(=O)C(C)(C)NC(=O)[C@H](Cc1ccc(O)cc1)NC)[C@@H](C)O)C(=O)N[C@@H](CO)C(=O)N[C@@H](CC(=O)O)C(=O)N[C@@H](Cc1ccc(O)cc1)C(=O)N[C@@H](CO)C(=O)N[C@H](C(=O)NC(C)(C)C(=O)N[C@@H](CC(C)C)C(=O)N[C@@H](CC(=O)O)C(=O)N[C@@H](CCCNC(=N)N)C(=O)NC(C)(C)C(=O)N[C@@H](C)C(=O)N[C@@H](CCC(N)=O)C(=O)NC(C)(C)C(=O)N[C@@H](CCCCNC(=O)COCCOCCNC(=O)COCCOCCNC(=O)CC[C@H](NC(=O)CC[C@H](NC(=O)CCCCCCCCCCCCCCCCC(=O)O)C(=O)O)C(=O)O)C(=O)N[C@@H](Cc1ccccc1)C(=O)N[C@H](C(=O)N[C@@H](CC(N)=O)C(=O)N[C@@H](Cc1c[nH]c2ccccc12)C(=O)N[C@@H](CC(C)C)C(=O)N[C@@H](CC(C)C)C(=O)N[C@@H](C)C(=O)N[C@@H](CCC(N)=O)C(=O)N[C@@H](CCCNC(=N)N)C(=O)NCC(=O)O)C(C)C)[C@@H](C)CC)
- isolated yield: 9.87% yield
- final HPLC purity: 96.79% purity
